Record: PubChem BioAssay AID504761 (Drosophila RNAi Screening Center, 2011)

- Test: 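Fly genes whose silencing reduces dengue virus type 2 infection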 (primary screen)
- Cell system: D.Mel-2 cells from Drosophila
- Reagent: long dsRNA against Drosophila genes
- Challenge: infection with dengue virus type 2; dose and infection time not stated
- Detection: 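Per well on two replicate plates, imaging gave the percent of cells positive for viral envelope protein, ranked by infection, and a nuclear count of cells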
- Reading the numbers: infection score: higher = more virus-infected cells; cell count: higher = more cells in the well
- Hit rule: 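Very low infection ranking in both replicate wells (chance probability at most 0.065), then a retest showing infection dropped 1.5-fold or more at p below 0.05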
- Meaning of the calls: active = confirmed: knock-down lowers infection; inactive = not picked or not confirmed
The screen tested about 22,000 reagents; shown is an unselected part of those that have a named target and a result. Over the whole deposit, 116 (0.52%) were called active. 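Calls depend on retest data that are not deposited; infection was ranked per plate without normalising between plates; the unit of the infection score is not given.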 Raw values are not corrected between plates. Reagents against one gene are numbered here. Names joined by + are all predicted targets of the reagent. Not given: the amount of reagent, the time to read-out.

| target gene | reagent no. | infection score, replicate 1 | infection score, replicate 2 | cell count, replicate 1 | cell count, replicate 2 | call |
| --- | --- | --- | --- | --- | --- | --- |
| CG8547 | 1 | 10.6 | 18.8 | 5989 | 6210 | inactive |
| CG8547 | 2 | 16.1 | 15.6 | 4842 | 2842 | inactive |
| CG30492 (retired record) + M7BP | 1 | 0.74 | 1.15 | 6255 | 5904 | inactive |
| CG30492 (retired record) + M7BP | 2 | 1.6 | 0.58 | 5891 | 6177 | inactive |
| CG30492 (retired record) + M7BP | 3 | 7.24 | 5.93 | 6052 | 6810 | inactive |
| CG30492 (retired record) + M7BP | 4 | 6.97 | 3.38 | 6385 | 6418 | inactive |
| CG30492 (retired record) + M7BP | 5 | 4.7 | 1.26 | 6356 | 6105 | inactive |
| Son (Son RNA binding protein) | 1 | 2.62 | 10.6 | 6022 | 5987 | inactive |
| Kdm4A (Lysine demethylase 4A) | 1 | 22.5 | 26.8 | 3560 | 5550 | inactive |
| Kdm4A (Lysine demethylase 4A) | 2 | 9.92 | 11.6 | 3731 | 4022 | inactive |
| Exo84 (Exocyst 84) | 1 | 0.74 | 2.3 | 6112 | 6005 | inactive |
| CG10195 | 1 | 5.47 | 4.8 | 6073 | 4933 | inactive |
| CG30496 | 1 | 8.07 | 13.1 | 6602 | 5693 | inactive |
| atos (atossa) | 1 | 7.77 | 3.16 | 6179 | 6363 | inactive |
| TfIIB (Transcription factor IIB) | 1 | 4.51 | 7.35 | 5947 | 6111 | inactive |
| Muc30E (Mucin 30E) | 1 | 1.42 | 0.41 | 6500 | 6140 | active |
| Muc30E (Mucin 30E) | 2 | 2.41 | 1.33 | 953 | 828 | inactive |
| Sur (Sulfonylurea receptor) | 1 | 13.9 | 5.69 | 6500 | 6377 | inactive |
| Sur (Sulfonylurea receptor) | 2 | 26.7 | 17.3 | 6074 | 5952 | inactive |
| Ide (Insulin degrading metalloproteinase) | 1 | 0.19 | 2.61 | 521 | 651 | inactive |
| Lasp | 1 | 2 | 1.92 | 5887 | 6310 | inactive |
| Lasp | 2 | 5.25 | 3.91 | 5883 | 6141 | inactive |
| CG14718 | 1 | 9.35 | 19.2 | 2429 | 6068 | inactive |
| CG32066 | 1 | 7.57 | 1.69 | 6089 | 6210 | inactive |
| CG32066 | 2 | 0.98 | 1.36 | 5709 | 5968 | inactive |
| sima (similar) | 1 | 3.11 | 6.55 | 4208 | 3862 | inactive |
| sima (similar) | 2 | 32 | 14.4 | 5575 | 5238 | inactive |

Not a retest: 8 of the entries above.
| target gene | reagent no. | infection score, replicate 1 | infection score, replicate 2 | cell count, replicate 1 | cell count, replicate 2 | call |
| --- | --- | --- | --- | --- | --- | --- |
| Ide (Insulin degrading metalloproteinase) | 1 | 0.19 | 2.61 | 521 | 651 | inactive |
| Lasp | 1 | 2 | 1.92 | 5887 | 6310 | inactive |
| Lasp | 2 | 5.25 | 3.91 | 5883 | 6141 | inactive |
| CG14718 | 1 | 9.35 | 19.2 | 2429 | 6068 | inactive |
| CG32066 | 1 | 7.57 | 1.69 | 6089 | 6210 | inactive |
| CG32066 | 2 | 0.98 | 1.36 | 5709 | 5968 | inactive |
| sima (similar) | 1 | 3.11 | 6.55 | 4208 | 3862 | inactive |
| sima (similar) | 2 | 32 | 14.4 | 5575 | 5238 | inactive |

The list goes on:
| target gene | reagent no. | infection score, replicate 1 | infection score, replicate 2 | cell count, replicate 1 | cell count, replicate 2 | call |
| --- | --- | --- | --- | --- | --- | --- |
| VhaPPA1-2 (Vacuolar H[+] ATPase PPA1 subunit 2) | 1 | 11.8 | 12.5 | 5193 | 5388 | inactive |
| VhaPPA1-2 (Vacuolar H[+] ATPase PPA1 subunit 2) | 2 | 10.8 | 3.43 | 4844 | 6743 | inactive |
| CR31032 (pseudo) | 1 | 3.45 | 6.72 | 6371 | 6023 | inactive |
| CR31032 (pseudo) | 2 | 7.67 | 2.95 | 5982 | 6101 | inactive |
| sut4 (sugar transporter 4) | 1 | 9.12 | 10.8 | 6435 | 6051 | inactive |
| sut4 (sugar transporter 4) | 2 | 0.95 | 2.45 | 6845 | 6652 | inactive |
| mei-S332 (meiotic from via Salaria 332) | 1 | 13.7 | 28 | 5719 | 4988 | inactive |
| Asph (Aspartyl beta-hydroxylase) | 1 | 9.53 | 22.3 | 6266 | 6790 | inactive |
| Asph (Aspartyl beta-hydroxylase) | 2 | 24.4 | 19.3 | 5034 | 4290 | inactive |
| Asph (Aspartyl beta-hydroxylase) | 3 | 7.9 | – | 1709 | 373 | inactive |
| CG15571 | 1 | 0.85 | 6.67 | 6689 | 5040 | inactive |
| CG15571 | 2 | 8.06 | 32.1 | 5658 | 4636 | inactive |
| Ttc19 (Tetratricopeptide repeat domain 19) | 1 | – | 8.71 | 622 | 7360 | inactive |
| CG12769 | 1 | 5.22 | 2.85 | 6344 | 6237 | inactive |
| Cyp4e2 (Cytochrome P450 4e2) | 1 | 7.49 | 8.06 | 6062 | 6244 | inactive |
| CG2915 | 1 | 3.48 | 5.39 | 5694 | 6033 | inactive |
| bsk (basket) | 1 | 20.5 | 12.1 | 6292 | 6470 | inactive |
| Eglp4 (Entomoglyceroporin 4) | 1 | 4.06 | 5.52 | 6526 | 6736 | inactive |
| Eglp4 (Entomoglyceroporin 4) | 2 | 1.11 | 2.69 | 6389 | 6458 | inactive |
| COX6AL2 (Cytochrome c oxidase subunit 6A-like 2) | 1 | 5.98 | 8.56 | 7210 | 6638 | inactive |
| CG9360 | 1 | 2.47 | 7.78 | 6308 | 6302 | inactive |
| Ugt307A1 (UDP-glycosyltransferase family 307 member A1) | 1 | 12.6 | – | 3882 | 496 | inactive |
| BubR1 (Bub1-related kinase) | 1 | 11.1 | 26.6 | 4895 | 3518 | inactive |
| EndoGI (Endonuclease G inhibitor) | 1 | 20.2 | 2.85 | 4876 | 6775 | inactive |
| CG7083 | 1 | 1.86 | 2.29 | 5969 | 6188 | inactive |
| CG7083 | 2 | 6.83 | 11 | 6339 | 6168 | inactive |
| CG14369 | 1 | 4.89 | 9.72 | 5987 | 5795 | inactive |
| CG14369 | 2 | 9.53 | 3.88 | 6192 | 6284 | inactive |
| kat80 (katanin 80) | 1 | 3.28 | 10 | 6351 | 6629 | inactive |
| kat80 (katanin 80) | 2 | 1.64 | 3.48 | 6818 | 6866 | inactive |
| CG42562 | 1 | 8.05 | 15.8 | 7091 | 6957 | inactive |
